This experiment deals with T1, CsrA (residues 1-61), GST tag removed (enteropathogenic E. coli (EPEC) O127:H6 …, UniProt P69913 1-61).
T1 construct: also called WT CsrA; native CsrA
Description: crystal structure. The following applies: both partners purified.

The results in this text go back to publication PMC5864733 (Nature Communications, 2018).

B1: CsrA-Cdel (residues 1-44) (domain or fragment)
chain: MLILTRRVGETLMIGDEVTVTVLGVKGNQVRIGVNAPKEVSVHR
notes: source: E. coli BL21(DE3), purified (GST column, gel filtration)
Consider B1, for which the binding result is given as “binds”.
